A mixed list of measured activities; the numbers were collected in NIAID ChemDB.

All rows: whole-cell or culture tests; organism: Mycobacterium tuberculosis

MIC bound: limit read from a one-dose screen. A number after MIC or MFC names an inhibition level or a share of isolates. Conditions beyond the fields shown may differ between rows. An empty or dashed field is not shown. ECn: concentration that inhibits the pathogen or its effect by n%. Inhibition is in % at the dose shown (toxicity tests: loss of growth or viability).

compound	tested at	cells	mutations	read by	conditions	measure	strain or isolate	result
Cc1cc(C(N)=S)ccn1						MIC	H37Rv (INH-resistant)	512 µM
Cc1cn2c(C(=O)NCc3ccc(N4CCOCC4)cc3)c(C)nc2s1				luminescence		MIC	H37Rv	57 µM
CCN=c1cc2n(-c3ccc(C(F)(F)F)cc3)c3ccccc3nc-2cc1Nc1ccc(C(F)(F)F)cc1					multidrug-resistant	MIC	2225	0.12 µg/mL
COc1ccc(-n2cc(CSC3c4ccccc4-c4ccccc43)nn2)cc1				broth dilution		MIC99	Specimen 192	129.7 µM
O=C(Nc1ccc(Cl)cc1)N1CCCC[C@H]1[C@@H](O)c1cc(C(F)(F)F)nc2c(C(F)(F)F)cccc12						MIC		29 µM
CCn1cc(C(=O)O)c(=O)c2cc(F)c(N3CCN(CC(=O)c4ccc(C)cc4)CC3)cc21	6.25 µg/mL					inhibition	H37Rv	17%
CC(=O)O[C@H]1C=C(C=O)[C@](O)(C=O)[C@@]2(C)CCCC(C)(C)C12	12.5 µg/mL			BACTEC		inhibition	H37Rv	5%
CC(CNCCNCCC1=CCCCC1)c1ccccc1						MIC		50 µM
Cc1cn2c(C(=O)NCc3ccc(N4CCN(c5ccc(C(F)(F)F)cn5)CC4)c(F)c3)c(C)nc2s1			K14b00DS	resazurin / fluorescence		MIC	H37Rv	0.125 µM
CCn1cc(C(=O)O)c(=O)c2cc(F)c(N3CCN(CC(=O)c4ccccc4)CC3)nc21	6.25 µg/mL					inhibition	H37Rv	52%
Cc1cc(C)c2c(=O)n(CC(O)CNc3ccc4c(c3)OCO4)sc2n1						MIC	H37Rv	>12.5 µg/mL
O=S(=O)(Nc1cc(Cl)c(NS(=O)(=O)c2ccccc2)c(S(=O)(=O)c2ccccc2)c1Cl)c1ccccc1				BACTEC		MIC bound	H37Rv	>12.5 µg/mL
CCn1cc(C(=O)O)c(=O)c2cc(F)c(N3CCN(CC(=O)c4ccc(Br)cc4)CC3)cc21	6.25 µg/mL	VERO				inhibition	H37Rv	95%
CNc1ccc(C(N)=S)cc1						MIC	H37Rv	64 µM
Cc1cc(CN2CCN(C)CC2)c(C)n1C1CCCCC1						MIC	H37Rv	<12.5 µg/mL
Cc1ncc(COP(=O)(O)O)c(C2N[C@@H](C(=O)O)CS2)c1O				BACTEC		MIC bound	H37Rv	>12.5 µg/mL
CCCCCCn1c(C)c(CN2CCOCC2)c(CN2CCOCC2)c1-c1ccc(Cl)cc1						MIC	103471	8 µg/mL
OC(c1cc(C23CC4CC(CC(C4)C2)C3)nc2c(Cl)cc(Cl)cc12)C1CCCCN1		VERO				MIC	H37Rv	0.39 µg/mL
C[C@@H]1[C@H]2C[C@@H](C[C@H]1NCCNCCCCc1ccccc1)C2(C)C						MIC		50 µM
CCOC(=O)N1CCN(P(=O)(Nc2ccc3nc(NC(=O)OC)[nH]c3c2)Oc2ccccc2)CC1	0.5 µM			BACTEC		inhibition		0%
CCCCCCCO/N=C/c1c2c(O)c3c(O)c(C)c4c(c3c1O)C(=O)[C@@](C)(O/C=C/[C@H](OC)[C@@H](C)[C@@H](OC(C)=O)[C@H](C)[C@H](O)[C@H](C)[C@@H](O)[C@@H](C)/C=C/C=C(/C)C(=O)N2)O4						MIC	H37Rv	2 µg/mL
CO[C@H]1/C=C/O[C@@]2(C)Oc3c(C)c(O)c4c(O)c(c(/C=N/N5CCN(C)CC5)c(O)c4c3C2=O)NC(=O)/C(C)=C\C=C\[C@H](C)[C@H](O)[C@@H](C)[C@@H](O)[C@@H](C)[C@H](OC(C)=O)[C@@H]1C						MIC	6S	1 µg/mL
CC(C)c1ccc2c(c1)CC[C@H]1[C@](C)(CNCCNC3CCCc4ccccc43)CCC[C@]21C						MIC		25 µM
CC(=O)c1ccc(-c2cc(C(F)(F)F)nc3c(C(F)(F)F)cccc23)cc1						MIC		>128 µM
Cc1ccc(NC(=O)NCCCCCCNC(=O)Nc2ccc(C)c(Cl)c2)cc1Cl				BACTEC		MIC bound	H37Rv	>12.5 µg/mL
COc1ccc(OC)c(CCNCCNC/C=C(\C)CCC=C(C)C)c1						MIC		50 µM
Cc1ccc(C(=O)CN2CCN(c3cc4c(cc3F)c(=O)c(C(=O)O)cn4C3CC3)CC2)cc1		VERO				EC50	H37Rv	<6.25 µg/mL
Cc1ccc(C)[nH]1						MIC	103471	8 µg/mL
CO[C@H]1/C=C/O[C@@]2(C)Oc3c(C)c(O)c4c(O)c(c(/C=N/OCCCCCCCCCCOc5ccccc5)c(O)c4c3C2=O)NC(=O)/C(C)=C\C=C\[C@H](C)[C@H](O)[C@@H](C)[C@@H](O)[C@@H](C)[C@H](OC(C)=O)[C@@H]1C						MIC	H37Rv	10 µg/mL
Cc1cc(C)c2c(=O)n(CC(N)=O)sc2n1						EC50	H37Rv	>12.5 µg/mL
CCn1cc(C(=O)O)c(=O)c2cc(F)c(N3CCN(C)CC3)cc21						MIC50	58 isolates	4 µg/mL
C=CCN(CCNCCC(c1ccccc1)c1ccccc1)C1CCCC1						MIC		25 µM
O=C(NCCNC(=O)[C@H]1CCCN1)[C@H]1CCCN1				resazurin		MIC bound	H37Rv	>6.25 µg/mL
CC(CNCCNC(C)(C)CC(C)(C)C)c1ccccc1						MIC		50 µM
O=S1(=O)CC2C1C1(Cl)OC2(Cl)c2ccccc21	12.5 µg/mL			BACTEC		inhibition	H37Rv	-18%
CC1COc2c(N3CCN(C)CC3)c(F)cc3c(=O)c(C(=O)O)cn1c23				BACTEC		MIC	SMI12	1 µg/mL
CO[C@H]1/C=C/O[C@@]2(C)Oc3c(C)c(O)c4c(O)c(c(/C=N/OC(C(=O)O)C(C)C)c(O)c4c3C2=O)NC(=O)/C(C)=C\C=C\[C@H](C)[C@H](O)[C@@H](C)[C@@H](O)[C@@H](C)[C@H](OC(C)=O)[C@@H]1C						MIC	H37Rv	2 µg/mL
Cc1cc(C)c(C(N)=S)cn1						MIC	H37Rv (INH-resistant)	2048 µM
O=S(=O)(Cc1cn(-c2ccc(Cl)c(Cl)c2)nn1)C1c2ccccc2-c2ccccc21				broth dilution		MIC99	H37Rv	>219 µM
Cc1cc(C)c2c(=O)n(CC(O)CN3CCc4ccccc4C3)sc2n1						EC50	H37Rv	>12.5 µg/mL
CN(C)c1ccc2[nH+]c3c(C(=O)O)cc(=O)c(O)c-3oc2c1	12.5 µg/mL			BACTEC		inhibition	H37Rv	31%
C[C@@H]1CN(c2c(F)c(N)c3c(=O)c(C(=O)O)cn(C4CC4)c3c2F)C[C@H](C)N1						MIC	Isolate TN6515	0.075 µg/mL
CCn1cc(C(=O)O)c(=O)c2cc(F)c(N3CCN(C/C(=N/O)c4ccc(Br)cc4)CC3)nc21	6.25 µg/mL					inhibition	H37Rv	49%
Cc1c(CN2CCOCC2)cc(-c2ccc(Cl)cc2)n1C1CCCCC1						MIC	H37Rv	<12.5 µg/mL
CCOc1ccc(C(N)=S)cc1						MIC	H37Rv (INH-resistant)	128 µM
FC(F)(F)c1ccc(-n2cc(CSC3c4ccccc4-c4ccccc43)nn2)cc1				broth dilution		MIC99	H37Rv	>236 µM
CCn1cc(C(=O)O)c(=O)c2cc(F)c(N3CCN(C/C(=N/O)c4ccc(F)cc4)CC3)nc21						EC50	H37Rv	>6.25 µg/mL
O=C1C2C3CCC(O3)C2C(=O)N1c1ccccn1	12.5 µg/mL			BACTEC		inhibition	H37Rv	49%
Cc1cn2c(C(=O)NCc3ccc(N4CCC(c5ccc(OC(F)(F)F)cc5)CC4)cc3)c(C)nc2s1			QcrB5 M342I	resazurin / fluorescence		MIC	H37Rv	<0.024 µM
CC(=O)C1=C(O)c2c(C)cc(C)nc2S(=O)(=O)N1C						MIC	H37Rv	>12.5 µg/mL
COc1ccc(-n2cc(CS(=O)(=O)C3c4ccccc4-c4ccccc43)nn2)cc1				broth dilution		MIC99	H37Rv	120 µM
CN1CCN(/N=C/c2cc(C(F)(F)F)nc3c(C(F)(F)F)cccc23)CC1						MIC		16 µM
Nc1ccc(-c2csc(-c3ccccc3)n2)c(Cl)c1				BACTEC		MIC	H37Rv	12.5 µg/mL
CCC1CN(c2c(F)cc3c(=O)c(C(=O)O)cn(C4CC4)c3c2OC)CCN1						MIC	Isolate TN5704	0.2 µg/mL
CC(=O)C1(N=Nc2ccc(S(=O)(=O)Nc3onc(C)c3C)cc2)CCOC1=O	12.5 µg/mL			BACTEC		inhibition	H37Rv	4%
FC(F)(F)c1cc(-n2ccnc2)c2cccc(C(F)(F)F)c2n1						MIC		>128 µM
CCCCCCn1c(C)cc(CN2CCN(C)CC2)c1C						MIC	103471	4 µg/mL
C=O.O=S1c2ccccc2N(CCN2CCCC2)c2ccccc21				BACTEC		MIC bound	H37Rv	>12.5 µg/mL
CO[C@H]1/C=C/O[C@@]2(C)Oc3c(C)c(O)c4c(O)c(c(/C=N/N5CCN(C)CC5)c(O)c4c3C2=O)NC(=O)/C(C)=C\C=C\[C@H](C)[C@H](O)[C@@H](C)[C@@H](O)[C@@H](C)[C@H](OC(C)=O)[C@@H]1C						MIC	13684	0.1 µg/mL
CC(=O)N1c2ccccc2C23CCN4CC5=CCOC(O)C(C5CC42)C13				BACTEC		MIC	H37Rv	≥12.5 µg/mL
C1CCC2C(C1)CCCN2CCNCC12CC3CC(CC(C3)C1)C2						MIC		18.8 µM
COc1ccc(/C(CN2CCN(c3cc4c(cc3F)c(=O)c(C(=O)O)cn4C3CC3)CC2)=N\O)cc1						EC50	H37Rv	<6.25 µg/mL
CC(=O)NC[C@H]1CN(c2ccc(N3CCOCC3)c(F)c2)C(=O)O1						MIC	4S	0.5 µg/mL
CC(C)=CCN1c2ccccc2NC(=O)CC1C				BACTEC		MIC bound	H37Rv	>12.5 µg/mL
Cc1cc(C)c2c(n1)S(=O)(=O)N(CC(=O)c1ccccc1)C2=O	12.5 µg/mL					inhibition	H37Rv	36%
CN(C)c1ccc(/C=N/NC(=O)CNC(=O)n2ccnc2)cc1	12.5 µg/mL			BACTEC		inhibition	H37Rv	23%
O=[N+]([O-])c1ccc(-n2cc(CS(=O)(=O)C3c4ccccc4-c4ccccc43)nn2)cc1				broth dilution		MIC99	Specimen 192	>231 µM
Cc1ccc(NC(=S)SCc2ccc(Cl)c(Cl)c2)cc1C	128 µg/mL			BACTEC		inhibition	H37Rv	100%
CCCCCCCCCCCNCCNCCCOCC						MIC		25 µM
CCN(CC)CCNC(=O)c1c2nc3c(C(=O)NCCN(CC)CC)ccc(C)c3oc-2c(C)c(=O)c1N				BACTEC		MIC	H37Rv	≥12.8 µg/mL
C#CCO/N=C/c1c2c(O)c3c(O)c(C)c4c(c3c1O)C(=O)[C@@](C)(O/C=C/[C@H](OC)[C@@H](C)[C@@H](OC(C)=O)[C@H](C)[C@H](O)[C@H](C)[C@@H](O)[C@@H](C)/C=C/C=C(/C)C(=O)N2)O4						MIC	H37Rv	0.2 µg/mL
O=C1CC(SC(=S)N2CCCCC2)C(=O)N1c1ccccc1						MIC	INH-r	6.4 µg/mL
Cc1cn2c(C(=O)NCc3ccc(N4CCOCC4)c(F)c3)c(C)nc2s1			QcrB1 A317V	resazurin / fluorescence		MIC	H37Rv	12.5 µM
Cc1c(CN2CCN(C)CC2)c(CN2CCN(C)CC2)c(-c2ccc(Cl)cc2)n1C1CCCCC1						MIC	103471	8 µg/mL
O=[N+]([O-])c1ccccc1-n1cc(CS(=O)(=O)C2c3ccccc3-c3ccccc32)nn1				broth dilution		MIC99	H37Rv	>231 µM
Cc1c(CN2CCOCC2)cc(-c2ccc(Cl)cc2)n1Cc1ccccc1						MIC	103471	8 µg/mL
COc1cc(-n2cc(CNC3c4ccccc4-c4ccccc43)nn2)cc(OC)c1OC				broth dilution		MIC99	Specimen 192	58.34 µM
CN(C)C1C(=O)C(C(=O)NCNC(C=O)C(O)C(O)C(O)CO)=C(O)C2(O)C(=O)C3=C(O)c4c(O)cccc4C(C)(O)C3CC12.CS(=O)(=O)O	12.5 µg/mL			BACTEC		inhibition	H37Rv	6%
Cc1c(CN2CCOCC2)c(CN2CCOCC2)c(-c2ccc(Cl)cc2)n1Cc1ccccc1	12.5 µg/mL					inhibition	H37Rv	99%